PubChem BioAssay AID624099, ICCB-Longwood – 2012

Assay: 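Knock-downs relieving repression by E2 of an HPV18 LCR luciferase reporter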 (primary screen)
System: human C33A cervical carcinoma cells (HPV-negative) stably expressing BPV1 E2 and an HPV18 LCR luciferase reporter
Reagents: siRNA pool against human genes, 40 nM
Timing: 72 h
Read-out: 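Per-well luciferase luminescence, z-scored on each plate against the plate mean and SD with control wells left out, then averaged across three replicate plates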
Direction: mean z-score and z-score: higher = stronger reporter signal, weaker E2 silencing
Active means: 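Mean z ≥ 2 together with z ≥ 2 in two or more of the three replicates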
This is one part, drawn at random, of about 21,000 reagents. 497 of all reagents (2.4%) count as active. 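Higher z means weaker E2 silencing; only reporter increases were scored, and knock-downs that hurt cell survival may mask genuine repressor factors.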

Against LONRF3 (GeneID 79836), the values are mean z-score -0.48; z-score, replicate A = -0.52; z-score, replicate B = -0.39; z-score, replicate C = -0.52; inactive. For LMNTD1 (GeneID 160492), the entry reads mean z-score -1.95; z-score, replicate A = -1.68; z-score, replicate B = -2.02; z-score, replicate C = -2.13; inactive. SNAPC1 (GeneID 6617) scored mean z-score -0.46; z-score, replicate A = -0.75; z-score, replicate B = -0.37; z-score, replicate C = -0.26; inactive. KMT2B (GeneID 9757) gave mean z-score 0.43; z-score, replicate A = 0.35; z-score, replicate B = 0.4; z-score, replicate C = 0.53; inactive. For CDKN2AIP (GeneID 55602), the values are mean z-score 0.84; z-score, replicate A = 0.95; z-score, replicate B = 0.99; z-score, replicate C = 0.58; inactive. With knock-down of GZMM (GeneID 3004) the results were mean z-score 2.1; z-score, replicate A = 1.88; z-score, replicate B = 2.1; z-score, replicate C = 2.33; active.

ZNF513 (GeneID 130557) showed mean z-score 0.71; z-score, replicate A = 0.74; z-score, replicate B = 0.58; z-score, replicate C = 0.79; inactive. Against ZBTB8A (GeneID 653121), the entry reads mean z-score 0.97; z-score, replicate A = 1.04; z-score, replicate B = 0.92; z-score, replicate C = 0.96; inactive. Against DOC2A (GeneID 8448), the entry reads mean z-score 1.22; z-score, replicate A = 1.37; z-score, replicate B = 0.95; z-score, replicate C = 1.36; inactive. After knock-down of BOLL (GeneID 66037), the screen gave mean z-score -0.65; z-score, replicate A = -0.51; z-score, replicate B = -0.59; z-score, replicate C = -0.85; inactive. DENND1A (GeneID 57706) scored mean z-score 0.34; z-score, replicate A = 0.64; z-score, replicate B = 0.31; z-score, replicate C = 0.07; inactive. Knock-down of BGN (GeneID 633) came out at: mean z-score 0.38; z-score, replicate A = 0.37; z-score, replicate B = 0.51; z-score, replicate C = 0.26; inactive.

Depletion of LOC400933 (retired record) (GeneID 400933) resulted in: mean z-score -1.12; z-score, replicate A = -0.78; z-score, replicate B = -1.12; z-score, replicate C = -1.46; inactive. For DSC3 (GeneID 1825), the values are mean z-score -0.56; z-score, replicate A = -0.23; z-score, replicate B = -0.66; z-score, replicate C = -0.79; inactive.
